Anti-infective test results gathered from many reports (values: NIAID ChemDB through PubChem).

Common to all: growth or infection tests

ECn is the concentration giving n% inhibition of infection, replication or growth. Blank or dashed fields: not listed here. Lines come from different laboratories, so protocols vary. Inhibition is in % at the dose shown (toxicity tests: loss of growth or viability).

O=c1[nH]cnc2c1ncn2[C@@H]1C=C(CO)[C@@H](O)[C@H]1O ; measure: EC50 ; agent: Monkeypox virus ; strain or isolate: MPX ; cells: MK2 ; value: >100 µg/mL
Brc1ccc(C2=Cc3cc(Br)ccc3OC2)cc1 ; measure: EC50 ; agent: Poliovirus ; strain or isolate: II (TYPE 2) ; cells: HEP-2 ; value: >10 µM
Cn1cc(NC(=O)c2cc(NC(=O)c3cc(NC(=O)c4cc(NC(=O)c5cc(NC=O)cn5C)cn4C)cn3C)cn2C)cc1C(=O)NCCC(=N)N ; tested at: 100 µg/mL ; measure: inhibition ; agent: Vaccinia virus ; strain or isolate: Noguchi ; cells: BSC-1 ; value: 57%
CCC1COC(c2ccc(OCCCCC(=O)c3ccc(C)s3)cc2)=N1 ; measure: EC50 ; agent: Poliovirus ; strain or isolate: TYPE 1 ; cells: VERO ; value: >26.95 µM
CC(C)(C)C(=O)OCOP(=O)(COCCn1cnc2c(N)ncnc21)OCOC(=O)C(C)(C)C ; measure: EC50 ; agent: Monkeypox virus ; cells: LLC-MK2 ; value: >100 µg/mL
Cc1ccc(C(=O)CCCCCCOc2ccc(C3=N[C@@H](C)CO3)cc2)s1 ; measure: EC50 ; agent: Poliovirus ; strain or isolate: TYPE 1 ; cells: VERO ; value: >25.97 µM
Cn1cc(NC(=O)c2cc(NC(=O)c3cc([N+](=O)[O-])cn3C)cn2C)cc1C(=O)NCCC(=N)N ; tested at: 200 µg/mL ; measure: inhibition ; agent: Vaccinia virus ; strain or isolate: Noguchi ; cells: BSC-1 ; value: 0%
Cc1ccc(C(=O)CCCCCCOc2ccc(C3=NC(C)CO3)cc2)s1 ; measure: EC50 ; agent: Poliovirus ; strain or isolate: TYPE 3 ; cells: VERO ; value: 1.81 µM
Clc1ccc2c(c1)CC(c1ccccc1)CO2 ; measure: EC50 ; agent: Poliovirus ; strain or isolate: TYPE 2 ; cells: HEP-2 ; value: >10 µM
Nc1ccn([C@@H]2C=C(CO)[C@@H](O)[C@H]2O)c(=O)n1 ; measure: EC50 ; agent: Variola virus ; strain or isolate: 7124 ; value: 0.08 µg/mL
Nc1ccn(C[C@H]2COP(=O)(O)CO2)c(=O)n1 ; measure: EC50 ; agent: Variola virus ; strain or isolate: Isolate 102 ; cells: VERO ; value: 38 µg/mL
Brc1ccc(C2=Cc3ccccc3OC2)cc1 ; measure: EC50 ; agent: Poliovirus ; strain or isolate: TYPE 2 ; cells: HEP-2 ; value: >10 µM
Nc1nc(=O)n([C@@H]2C=C(CO)[C@@H](O)[C@H]2O)cc1Br ; measure: EC50 ; agent: Monkeypox virus ; strain or isolate: ZAIRE ; value: >100 µg/mL
Clc1ccc(C2COc3ccc(Cl)cc3C2)cc1 ; tested at: 10 µM ; measure: inhibition ; agent: Poliovirus ; strain or isolate: TYPE 2 ; cells: HEP-2 ; value: 0%
Cc1ccc(C(=O)CCCCOc2ccc(C3=NC(C)CO3)cc2)s1 ; measure: EC50 ; agent: Poliovirus ; strain or isolate: TYPE 3 ; cells: VERO ; value: 0.67 µM
Clc1ccc2c(c1)C=C(c1ccccc1)CO2 ; measure: EC50 ; agent: Poliovirus ; strain or isolate: IA (TYPE 2) ; cells: HEP-2 ; value: <10 µM
Nc1ccn(C[C@@H](CO)OCP(=O)(O)O)c(=O)n1 ; measure: EC50 ; agent: Variola virus ; strain or isolate: Isolate Brazil Garcia ; cells: LLC-MK2 ; value: 2.5 µg/mL
Nc1ccn([C@@H]2C=C(CO)[C@@H](O)[C@H]2O)c(=O)n1 ; measure: EC50 ; agent: Variola virus ; strain or isolate: 7124 ; cells: MK2 ; value: 0.08 µg/mL

A second listing of 2 rows from above:

structure,tested at,measure,agent,strain or isolate,cells,value
Cc1ccc(C(=O)CCCCOc2ccc(C3=NC(C)CO3)cc2)s1,-,EC50,Poliovirus,TYPE 3,VERO,0.67 µM
CCC1COC(c2ccc(OCCCCC(=O)c3ccc(C)s3)cc2)=N1,-,EC50,Poliovirus,TYPE 1,VERO,>26.95 µM